# From patent publication US20240033341A1
# How the values were obtained:
# [1] = target: 426c.TM4 gp120 (HIV-1 (clade C strain 426c, engineered))
# [2] = target: 426c.TM4 gp120 (HIV-1 (clade C strain 426c, engineered)); remark: listed apart in the source
# [3] = target: 426c.TM4 gp120 (HIV-1 (clade C strain 426c, engineered)); remark: listed apart in the source
# [4] = target: 426c.TM4 gp120 (HIV-1 (clade C strain 426c, engineered)); remark: listed apart in the source
# [5] = target: IGT1 gp120 (HIV-1 (clade C strain 426c, engineered)); experiment: ELISA, gp120 coated on the plate, IgG titrated
# [6] = target: IGT2 gp120 (HIV-1 (clade C strain 426c, engineered)); experiment: ELISA, gp120 coated on the plate, IgG titrated
# [7] = target: 426c.TM4 gp120 (HIV-1 (clade C strain 426c, engineered)); experiment: flow cytometry of yeast displaying 426c.TM4 gp120, 3rd sort
# [8] = target: 426c.TM4 gp120 (HIV-1 (clade C strain 426c, engineered)); experiment: flow cytometry of yeast displaying 426c.TM4 gp120, pre-sort
# [9] = target: IGT1 gp120 (HIV-1 (clade C strain 426c, engineered)); experiment: SPR, IgG immobilized on CM5 chip, monomeric gp120 core as analyte, 1:1 model
# [10] = target: IGT2 gp120 (HIV-1 (clade C strain 426c, engineered)); experiment: as above
# [11] = target: 426c.TM4 gp120 (HIV-1 (clade C strain 426c, engineered)); experiment: flow cytometry of yeast displaying 426c.TM4 gp120 (panel 426c), Pre-Sort
substance,measurement,setting,value
IOMA iGL IgG (antibody),"number in the upper right quadrant (α-cMyc-AF488 positive and IOMA iGL + α-IgG AF647 positive; percent of events, unit not given)",[1],0.1
same,"number in the upper right quadrant (α-cMyc-AF488 positive and IOMA iGL + α-IgG AF647 positive; percent of events, unit not given)",[2],0.069
same,"number in the upper right quadrant (α-cMyc-AF488 positive and IOMA iGL + α-IgG AF647 positive; percent of events, unit not given)",[3],0.029
same,"number in the upper right quadrant (α-cMyc-AF488 positive and IOMA iGL + α-IgG AF647 positive; percent of events, unit not given)",[4],0.09
same,EC50 (read off the curve),[5],3 µg/mL
same,EC50 (read off the curve),[6],2 µg/mL
same,"number in the upper right quadrant (cMyc-AF488 positive and IOMA iGL + α-IgG-AF647 positive; percent of events, unit not given)",[7],0.029
same,"number in the upper right quadrant (cMyc-AF488 positive and IOMA iGL + α-IgG-AF647 positive; percent of events, unit not given)",[8],0.15
same,Kd,[9],30 µM
same,Kd,[10],0.5 µM
same,"number in the upper right quadrant (α-cMyc-AF488 positive and IOMA iGL + α-IgG AF647 positive; percent of events, unit not given)",[11],0.15

# Read-outs that look alike come from different tables or passages of the source.
